A mixed list of measured activities; the numbers were collected in NIAID ChemDB.

MIC bound comes from a single tested concentration. Inhibition is in % at the dose shown (toxicity tests: loss of growth or viability). Neighbouring rows are from separate reports. Blank or dashed fields: not listed here. ICn is the concentration giving n% inhibition.

structure | target | strain or isolate | measure | tested at | test | method | organism | result
Fc1ccc(-c2cncc(N3CCN(c4ccncc4)CC3)n2)c(F)c1 | UL97 kinase |  | IC50 |  | target |  | Cytomegalovirus | <10 µM
O=C(O)CNc1nc2ccccc2s1 |  | H37Rv | MIC |  | culture |  | Mycobacterium tuberculosis | >100 µg/mL
CNC(=O)C1C2CC3OC(=O)C1C3C2 |  | H37Rv | inhibition | 12.5 µg/mL | culture | BACTEC | Mycobacterium tuberculosis | 5%
Cc1cccc(-c2cncc(N3CCN(c4cccc(C(F)(F)F)c4)CC3)n2)c1 | UL97 kinase |  | IC50 |  | target |  | Cytomegalovirus | <100 µM
Cc1ccc(N(C)C(=O)CCCC(=O)O)c(C)c1 |  | H37Rv | MIC |  | culture |  | Mycobacterium tuberculosis | >100 µg/mL
CC1OC1C(=O)C1(O)C(C)C(O)C23OC2(C(O)c2c(O)cccc2C3=O)C1O |  | H37Rv | MIC |  | culture | BACTEC | Mycobacterium tuberculosis | ≥12.8 µg/mL
Cc1cccc(-c2cncc(N3CCN(c4ccccn4)CC3)n2)c1 | UL97 kinase |  | IC50 |  | target |  | Cytomegalovirus | <100 µM
CN1CCN(C(=S)N(C(=O)c2ccco2)c2ccccc2)CC1 |  | H37Rv | MIC bound |  | culture | BACTEC | Mycobacterium tuberculosis | >12.5 µg/mL
CCOc1ccc(-c2cncc(N3CCN(c4cccc(Cl)c4)CC3)n2)cc1 | UL97 kinase |  | inhibition | 1 µM | target |  | Cytomegalovirus | <50%
CC(=O)Nc1ccc(S(=O)(=O)c2ccc(N)cc2)cc1 |  | H37Rv | MIC |  | culture |  | Mycobacterium tuberculosis | 25 µg/mL
Cc1nc(N)sc1C(=O)Nc1ncn[nH]1 |  | H37Rv | inhibition | 12.5 µg/mL | culture | BACTEC | Mycobacterium tuberculosis | 0%
S=c1[nH]cc[nH]1 |  | H37Rv | MIC |  | culture |  | Mycobacterium tuberculosis | >100 µg/mL
Cc1ccccc1-c1cncc(N2CCN(c3ccccc3)CC2)n1 | UL97 kinase |  | inhibition | 10 µM | target |  | Cytomegalovirus | >15%
Nc1ccc(C(=O)C(=O)c2ccc(N)cc2)cc1 |  | H37Rv | MIC |  | culture |  | Mycobacterium tuberculosis | 100 µg/mL
COc1cccc(-c2cncc(N3CCN(c4ccccc4)CC3)n2)c1 | UL97 kinase |  | IC50 |  | target |  | Cytomegalovirus | <10 µM
O=C1OCCOCCOCCOCCOCCOC(=O)C1c1ccccc1 |  | H37Rv | inhibition | 12.5 µg/mL | culture | BACTEC | Mycobacterium tuberculosis | -9%
Cc1ccc(Nc2cc(Oc3ccc(C)c(S(=O)(=O)[O-])c3)c3c4c(cc(=O)n3C)-c3ccccc3C(=O)c24)c(S(=O)(=O)[O-])c1.[Na+].[Na+] |  | H37Rv | MIC |  | culture |  | Mycobacterium tuberculosis | >100 µg/mL
O=C(CN1CC1)Nc1ccc(NC(=O)CN2CC2)cc1 |  | H37Rv | inhibition | 12.5 µg/mL | culture | BACTEC | Mycobacterium tuberculosis | -6%
OCCCCCCCCO |  | H37Rv | MIC |  | culture |  | Mycobacterium tuberculosis | >100 µg/mL
CC(C)C1(C)C(=O)N(C)C(=O)N1Br |  | H37Rv | MIC bound |  | culture | BACTEC | Mycobacterium tuberculosis | >12.5 µg/mL
Fc1ccc(N2CCCCC2)c(NC(=S)c2ccncc2)c1 | EphA8 |  | inhibition | 10 µM | host protein | kinase activity |  | 1%

A second listing of 2 rows from above:

Nc1ccc(C(=O)C(=O)c2ccc(N)cc2)cc1 ; strain or isolate: H37Rv ; measure: MIC ; test: culture ; organism: Mycobacterium tuberculosis ; result: 100 µg/mL
Fc1ccc(N2CCCCC2)c(NC(=S)c2ccncc2)c1 ; target: EphA8 ; measure: inhibition ; tested at: 10 µM ; test: host protein ; method: kinase activity ; result: 1%